Pooled drug test results. Numbers come from NIAID ChemDB, via PubChem.

Common to all: whole-cell or culture tests; agent: Measles virus; method: plaque count; read-out: EC50

Conditions beyond the fields shown may differ between rows.

smiles	cell line	strain	value
COc1ccc(/C=N/n2cc(C(=O)O)c3ccccc3c2=O)cc1	HEP-2/L-929/VERO	Edmonston	>500 µM
O=C(NC1CC1)c1cc2c(s1)-c1ccccc1N(C(=O)c1ccc(NC(=O)c3ccccc3-c3ccccc3)cc1)CC2	HeLa	Sugiyama	>100 µM
CSc1nsc(-c2ccc(O)cc2)c1C#N	HEP-2	Edmonston	>2 µM
O=C(O)c1cn(/N=C/CCc2ccccc2)c(=O)c2ccccc12	HEP-2/L-929/VERO	Edmonston	>750 µM
CSc1nsc(C2CCCCC2)c1C#N	HEP-2	Edmonston	>50 µM
CCOC(=O)c1ccc(OCCOc2ccc(-c3snc(SC)c3C#N)cc2)cc1	HEP-2/L-929/VERO	-	>2 µM
COc1ccc(/C=N/N=C(/N)NO)c(OC)c1OC.Cc1ccc(S(=O)(=O)O)cc1	VERO	-	>50 µM
CSc1nsc(-c2cccc(Cl)c2)c1C#N	HEP-2	Edmonston	>10 µM
O=C(O)c1cn(/N=C/c2ccccc2Br)c(=O)c2ccccc12	HEP-2/L-929/VERO	Edmonston	>30 µM
CSc1nsc(-c2cccnc2)c1C#N	HEP-2	Edmonston	>20 µM
O=C(O)c1cn(/N=C/C=C/c2ccccc2)c(=O)c2ccccc12	HEP-2/L-929/VERO	Edmonston	12.5 µM
CSc1nsc(-c2ccc(OCCOc3ccccc3)cc2)c1C#N	HEP-2/L-929/VERO	-	>20 µM
Nc1ncnc2c1ncn2[C@@H]1C=C(CO)[C@@H](O)[C@H]1O	VERO	-	0.2 µg/mL
CCOC(=O)c1ccc(OCCCOc2ccc(-c3snc(SC)c3C#N)cc2)cc1	HEP-2/L-929/VERO	-	>2 µM
CSc1nsc(-c2ccc(C)cc2)c1C#N	HEP-2	Edmonston	>18 µM
CSc1nsc(-c2ccc(OCCCOc3ccccc3)cc2)c1C#N	HEP-2/L-929/VERO	-	5 µM
CCOC(=O)c1cc(C#N)c2[nH]c3ccccc3n2c1=O	VERO	Sugiyama	100 µg/mL
O=C(O)c1cn(/N=C/c2ccc([N+](=O)[O-])cc2)c(=O)c2ccccc12	HEP-2/L-929/VERO	Edmonston	42 µM
CSc1nsc(-c2ccc[n+](C)c2)c1C#N	HEP-2	Edmonston	>1250 µM
O=C(O)c1cn(/N=C/c2ccccc2Cl)c(=O)c2ccccc12	HEP-2/L-929/VERO	Edmonston	>30 µM
COc1ccc(OC)c(/C=N/N=C(/N)NO)c1.Cc1ccc(S(=O)(=O)O)cc1	VERO	-	>50 µM
CSc1nsc(-c2ccc(OCCOc3ccc(C#N)cc3)cc2)c1C#N	HEP-2/L-929/VERO	-	>2 µM
O=C(O)c1ccccc1/C=N/n1cc(C(=O)O)c2ccccc2c1=O	HEP-2/L-929/VERO	Edmonston	>600 µM

ECn: concentration that inhibits the pathogen or its effect by n%. An empty or dashed field is not shown.